Measured values from several laboratories, pooled; numbers as filed in NIAID ChemDB.

All rows: cytotoxicity tests; measure: CC50

CCn is the concentration with n% toxicity to the cells. An empty or dashed field is not shown. Rows are shuffled and stem from different studies. Two numbers with a dash give a range or band.

smiles	method	cells	result
COCO[C@@H]1C[C@@H](C(=O)OC)N2CCCC[C@@H]12	MTT	Human foreskin fibroblasts (HFF)	291 µM
CN(C)[C@H]1C[C@@]23CC[C@@]4(O2)C(=CC[C@]2(C)C(c5ccc6ccncc6c5)=CC[C@H]24)C=C3[C@@H](O)[C@@H]1O	ATP	HUVEC	<0.1 µM
Cc1cc(C)cc(S(=O)(=O)c2c(C(N)=O)[nH]c3ccc(Cl)cc23)c1	-	Macrophage	20 µM
CCCCCCCCCCCCCCCCCCOCCOP(=O)(O)OC[C@H]1O[C@@H](n2cnc(C(N)=O)n2)[C@H](O)[C@@H]1O	neutral red	APC103	185 µM
O=c1cc(N2CCOCC2)oc2c(-c3ccccc3)cccc12	MTS	Akata	6.16 µM
C[C@H](Cn1cnc2c(N)ncnc21)OCP(=O)(O)O	ATP	RPTECs (clinical isolate 1)	>2000 µM
NC1=NC2C(C=CN2CC(CO)CCO)C(=O)N1	-	SupT1	107 µg/mL
COC(=O)[C@H](C)NP(=O)(OC[C@@H]1C[C@]12C[C@@H]2n1cnc2c(N)ncnc21)Oc1ccccc1	-	2.2.15	27 µM
CN(C(=O)Oc1ccccc1C(=O)Nc1ccccc1)c1ccccc1	MTT	HepG2 cell	279.9 µM
O=C1Nc2ccccc2C(c2ccccc2)=NC1NC(=O)n1c(=O)[nH]c2ccccc21	-	HEP-2	4.3 µM
CC(=O)c1c(O)c(C)c(O)c2c1OC1=CC(=O)/C(=C(/C)NCc3ccccc3)C(=O)[C@@]12C	resazurin	L6	>208 µM
FC(F)(F)c1ccc(NC(=S)NCCC2=CCCCC2)nc1	-	HUMAN SPERM	131 µM
Nc1ncc2c(ncn2COC(CO)CO)n1	-	CD4+ T lymphocytes	1.3 µg/mL
Nc1ncnc2c1ncn2[C@@H]1O[C@H](OCP(=O)(O)O)C=C1F	-	CHO (hOAT1)	435 µM
Nc1ncnc2c1c(-c1ccc(C(F)(F)F)cc1)cn2[C@@H]1O[C@H](CO)[C@@H](O)[C@H]1O	MTT	BJ	59.9 µM
O=C1O[C@H]([C@@H]2COC(c3ccccc3)O2)C(O)=C1O	-	U1	30 µg/mL
CN(C)C(=O)Oc1ccc(Cl)cc1C(=O)Nc1ccc(Br)cc1	MTT	HepG2 cell	342.5 µM
O=c1c(O)c(-c2ccc(Cl)cc2)oc2ccccc12	-	KB	9.4 µM
O=C(Nc1ccc(C(F)(F)F)cc1)c1cc(Cl)ccc1OC(=O)N(c1ccccc1)c1ccccc1	MTT	HepG2 cell	>100 µM
Nc1ccn(C[C@@H](CO)OCP(=O)(O)O)c(=O)n1	ATP	RPTECs (clinical isolate 2)	308 µM
C=CCC1[C@H](O[Si](C)(C)C(C)(C)C)C[C@@H](C(=O)OC)N1C(=O)OC(C)(C)C	MTT	Human foreskin fibroblasts (HFF)	32 µM
S=C(NCCC1=CCCCC1)Nc1ccc(Cl)cn1	-	Human vaginal epithelial	578 µM
Cc1cn([C@H]2C=C[C@@H](CO)O2)c(=O)[nH]c1=O	-	HeLaT4	>334.8 µM
CC(C)NCC(O)c1ccc(O)c(O)c1	cell count	CEM	>100 µg/mL
CC(=O)c1c(O)c(C)c(O)c2c1OC1=CC(=O)/C(=C(/C)NCC(=O)O)C(=O)[C@@]12C	resazurin	L6	165.3 µM
S=C(NCCc1cccs1)Nc1ccc(Br)cn1	-	HUMAN SPERM	>500 µM
O=C(O)/C=C/c1ccc(O)c(O)c1	cell count	CEM	≥100 µg/mL
COc1ccccc1C(=O)NC1N=C(c2cccc(C(F)(F)F)c2)c2ccccc2NC1=O	-	HEP-2	5 µM
O=c1[nH]c(=O)n([C@@H]2O[C@H](CO)[C@@H](O)[C@@H]2O)cc1/C=C/Br	-	SupT1	>250 µg/mL
Cc1cc(Cl)c([N+](=O)[O-])c(N2CC[N+]3(CC2)CC[N+]2(CCN(c4nc(C)cc(Cl)c4[N+](=O)[O-])CC2)CC3)n1	-	K562	>313.3 µg/mL
COc1cccc(C2=NC(NC(=O)c3ccccc3OC)C(=O)Nc3ccccc32)c1	-	HEP-2	2 µM
O=C(Cn1c(-c2ccc3ccccc3c2)cc(-c2ccccc2)c1-c1ccco1)Nc1nc2ccccc2s1	MTT	HEK293T	38.32 µM
CC(=O)c1c(O)c(C)c(O)c2c1OC1=CC(=O)/C(=C(/C)NNC(=O)c3ccc(O)cc3)C(=O)[C@@]12C	resazurin	L6	66.97 µM
CC(=O)c1c(O)c(C)c(O)c(Cc2c(O)c3c(c(C(=O)/C=C/c4ccccc4)c2O)OC(C)(C)C=C3)c1O	ATP / luminescence	PBL	4.244 µM
CN(C)[C@H]1C[C@@]23CC[C@@]4(O2)C(=CC[C@]2(C)C(c5ccc6ccncc6c5)CC[C@@H]42)CC3[C@@H](O)[C@@H]1O	ATP	HUVEC	0.1–1 µM
C[C@@H]1C2CCC[C@@H]3CCC4(C)OO[C@@]23[C@H](O[C@H]1OC(=O)CCC(=O)NCCCCCCCCNC(=O)CCC(=O)O[C@@H]1O[C@@H]2OC3(C)CC[C@H]5CCCC([C@H]1C)[C@]52OO3)O4	resazurin	CCRF-CEM	2.94 µM
O=c1[nH]cnc(N2CC[N+]3(CC2)CC[N+]2(CCN(c4nc[nH]c(=O)c4[N+](=O)[O-])CC2)CC3)c1[N+](=O)[O-]	-	L929	132.1 µg/mL
COc1ccc(CCC(=O)NC2N=C(c3ccccc3)c3ccccc3NC2=O)cc1	-	HEP-2	5 µM
Nc1nc2c(ncn2COC(CO)CO)c(=O)[nH]1	-	HSB-2	54 µM
Cc1cn([C@H]2C=C[C@@H](CO)O2)c(=O)[nH]c1=O	tetrazolium	PBMC	4.5 µM
COC(=O)C[C@H]1C(C)(C)[C@H](OC(C)=O)[C@H]2C(=O)[C@]1(C)[C@H]1CC[C@]3(C)C(=CC(=O)O[C@H]3c3ccoc3)[C@]13O[C@H]23	-	SupT1	78.45 µM
NC(=O)C(c1ccccc1)(c1ccccc1)C1CCCN(CCc2ccc3c(c2)CCO3)C1	-	PM1	47 µM
Cc1cn([C@H]2C[C@H](N=[N+]=[N-])[C@@H](CO)O2)c(=O)[nH]c1=O	trypan blue	C8166	>0.08 µg/mL
COC(=O)[C@H](C)NP(=O)(OC[C@@H]1C=C[C@H](n2cc(C)c(=O)[nH]c2=O)O1)Oc1ccc(Br)cc1	tetrazolium	PBMC	>100 µM
S=C(NCCc1cccc(Cl)c1)Nc1ccc(Br)cn1	-	HUMAN SPERM	>500 µM
CN[C@H]1C[C@@H]2O[C@](C)([C@H]1OC)n1c3ccccc3c3c4c(c5c6ccccc6n2c5c31)C(=O)NC4	MTS	Akata	0.004 µM
C=C1C(=O)O[C@@H]2/C=C(\COC(C)=O)CC/C=C(/C=O)C[C@@H](O)[C@@H]12	WST / absorbance	WI38 human fibroblasts	3.03 µg/mL
CC(=O)N1C(=O)C(=O)c2ccccc21	MTT / absorbance	RAW 264.7	24.62 µM
COC(=O)[C@@H]1C[C@@H](O[Si](C)(C)C(C)(C)C)[C@@H]2CC=CCN12	MTT	Human foreskin fibroblasts (HFF)	83 µM
Nc1nc(OCCOCP(=O)(O)O)cc(=O)n1CCOCP(=O)(O)O	-	L1210	<10 µM
Cc1ccc(C(=O)Nc2ccc(S(=O)(=O)O)c3cc(S(=O)(=O)O)cc(S(=O)(=O)O)c23)cc1NC(=O)c1cccc(NC(=O)Nc2cccc(C(=O)Nc3cc(C(=O)Nc4ccc(S(=O)(=O)O)c5cc(S(=O)(=O)O)cc(S(=O)(=O)O)c45)ccc3C)c2)c1	-	HuT-78	55 µM
COc1ccc(-c2coc3cc(O)ccc3c2=O)cc1O	-	HEP-2	2.2 µg/mL
CN(C)C(=S)Oc1ccccc1C(=O)Nc1ccccc1	MTT	HepG2 cell	>500 µM
Nc1nc2c(ncn2CCOCP(=O)(O)O)c(=O)[nH]1	-	HSB-2	1.6 µM
Nc1nc(=O)n([C@@H]2CO[C@H](CO)S2)cc1F	-	CBMC	>500 µM
Nc1ccn([C@H]2CO[C@@H](CO)O2)c(=O)n1	-	PBM	>200 µM
Cc1nc(N2CC[N+]3(CC2)CC[N+]2(CCN(c4nc(C)nc5c4no[n+]5[O-])CC2)CC3)c2c(no[n+]2[O-])n1	-	K562	>334.8 µg/mL
COc1cc(C(=O)Oc2c(-c3ccc(Cl)c(Cl)c3)oc3ccccc3c2=O)cc(OC)c1O	-	KB	7.1 µM
CC(C)(C)[Si](C)(C)O[C@@H]1C[C@@H](/C=C/I)N2CCCC[C@H]12	MTT	Human foreskin fibroblasts (HFF)	34 µM
O=C(CCCc1ccccc1)N1CC[N+]2(CC1)CC[N+]1(CCN(C(=O)CCCc3ccccc3)CC1)CC2	-	GMK	>339.2 µg/mL
Cc1ccccc1NC(=O)OC(CN1CCCc2ccccc21)c1ccc(Cl)cc1	MTT / absorbance	C8166	109 µg/mL
O=[N+]([O-])c1c(C2CCCCCC2)ncnc1N1CC[N+]2(CC1)CC[N+]1(CCN(c3ncnc(C4CCCCCC4)c3[N+](=O)[O-])CC1)CC2	-	K562	>271.1 µg/mL
Nc1nc2c(ncn2[C@H]2CO[C@@H](CO)O2)c(=O)[nH]1	-	CBMC	>500 µM
Nc1ncc2c(ncn2COC(CO)CO)n1	-	HSB-2	0.85 µM
CCCOC(=O)c1cc(O)c(O)c(O)c1	cell count	CEM	65 µg/mL
Cc1cn([C@H]2C[C@H](N=[N+]=[N-])[C@@H](CO)O2)c(=O)[nH]c1=O	MTT / absorbance	PM1	>100 µM
CN(C)[C@H]1C[C@@]23CC[C@@]4(O2)C(=CC[C@]2(C)C(C(=O)Nc5cccnc5)=CC[C@H]24)C=C3[C@@H](O)[C@@H]1O	ATP	HUVEC	>1 µM
O=C(O)c1ccc(-c2c3nc(c(-c4ccc(C(=O)O)cc4)c4ccc([nH]4)c(-c4ccc(C(=O)O)cc4)c4nc(c(-c5ccc(C(=O)O)cc5)c5ccc2[nH]5)C=C4)C=C3)cc1	MTT	MAGI cell	40 µM
O=c1[nH]cccc1O	cell count	CEM	>100 µg/mL
O=C([O-])c1cc(COc2ccc(-c3c4nc(c(-c5ccc(OCc6cc(C(=O)[O-])cc(C(=O)[O-])c6)cc5)c5ccc([n-]5)c(-c5ccc(OCc6cc(C(=O)[O-])cc(C(=O)[O-])c6)cc5)c5nc(c(-c6ccc(OCc7cc(C(=O)[O-])cc(C(=O)[O-])c7)cc6)c6ccc3[n-]6)C=C5)C=C4)cc2)cc(C(=O)[O-])c1	MTT	MAGI cell	>100 µM
C/C=C1\C(=O)O[C@]23C=C[C@@H]4C(C(=O)OC)=CO[C@H](O[C@@H]12)[C@@H]43	MTT	J774G8	5.99 µg/mL
C[C@H]1C(=O)CC[C@@H]2[C@]1(C)CC[C@H]1[C@@]2(C)CC[C@@]2(C)C[C@](C)(CCC(=O)O)CC[C@]12C	sulforhodamine	Hep2.2.15	170.5 µM
Fc1ccccc1CCNC(=S)Nc1ccc(C(F)(F)F)cn1	-	HUMAN SPERM	>500 µM
COc1ccc(C(=O)N2CCN(c3ccc4c(c3)CCC(=O)N4)CC2)cc1OC	-	Macrophage	>100 µg/mL
O=C(O)/C=C/c1ccc(O)c(O)c1	neutral red	RC-37	150 µg/mL
O=C(Oc1c(-c2ccc(Cl)c(Cl)c2)oc2ccccc2c1=O)c1cc(OCc2ccccc2)c(OCc2ccccc2)c(OCc2ccccc2)c1	-	KB	>100 µM
C=CCC1[C@H](O[Si](C)(C)C(C)(C)C)C[C@@H](C(=O)OC)N1CC=C	MTT	Human foreskin fibroblasts (HFF)	54 µM
C#CC[C@@H](C(=O)N[C@H](/C=C/C(=O)OCC)C[C@@H]1CCNC1=O)n1cccc(NC(=O)c2cc(C)on2)c1=O	-	H1-HELA	572 µM
CN(C)[C@H]1C[C@@]23CC[C@@]4(O2)C(=CC[C@]2(C)C(c5ccc6ccncc6c5)C(=O)C[C@@H]42)C=C3[C@@H](O)[C@@H]1O	ATP	HUVEC	<0.1 µM
Cn1c2ccccc2c2c3c(c4c5ccccc5n(CCC#N)c4c21)CNC3=O	-	Akata	0.41 µM
CC(C)OC(=O)[C@H](C)N[P@](=O)(CO[C@H](C)Cn1cnc2c(N)ncnc21)Oc1ccccc1	ATP	RPTECs (clinical isolate 2)	8.2 µM
Nc1ccn([C@@H]2CO[C@H](CO)S2)c(=O)n1	-	CBMC	105 µM
CCOCn1c(Cc2ccccc2)c(C(C)C)c(=O)[nH]c1=O	-	MM	>100 µM
O=C(NC1N=C(c2cccc(Cl)c2)c2ccccc2NC1=O)c1ccccc1[N+](=O)[O-]	-	HEP-2	2.5 µM
O=C(NNC(=O)c1ccccc1S)c1ccccc1S	-	HuT-78	>100 µM
N#C/C=C1/c2cc(S)cc([N+](=O)[O-])c2-c2c1cc(S(=O)(=O)NCc1ccccc1)cc2[N+](=O)[O-]	MTT / absorbance	C8166	>100 µM
NC(=O)CCNC(=O)c1ccccc1SC(=O)c1cccnc1	MTS	U1 (TNF-alpha induced)	>100 µM
C[C@H](Cn1cnc2c(N)nc(N)nc21)OCP(=O)(O)O	-	HSB-2	>300 µM
Cc1ccc(CCNC(=S)Nc2ccc(Br)cn2)cc1	-	HUMAN SPERM	>500 µM

A second listing of 9 rows from above:

smiles,method,cells,result
CN(C(=O)Oc1ccccc1C(=O)Nc1ccccc1)c1ccccc1,MTT,HepG2 cell,279.9 µM
Cc1cc(C)cc(S(=O)(=O)c2c(C(N)=O)[nH]c3ccc(Cl)cc23)c1,-,Macrophage,20 µM
C[C@H]1C(=O)CC[C@@H]2[C@]1(C)CC[C@H]1[C@@]2(C)CC[C@@]2(C)C[C@](C)(CCC(=O)O)CC[C@]12C,sulforhodamine,Hep2.2.15,170.5 µM
NC1=NC2C(C=CN2CC(CO)CCO)C(=O)N1,-,SupT1,107 µg/mL
Nc1ncnc2c1c(-c1ccc(C(F)(F)F)cc1)cn2[C@@H]1O[C@H](CO)[C@@H](O)[C@H]1O,MTT,BJ,59.9 µM
CC(=O)c1c(O)c(C)c(O)c2c1OC1=CC(=O)/C(=C(/C)NNC(=O)c3ccc(O)cc3)C(=O)[C@@]12C,resazurin,L6,66.97 µM
CC(=O)N1C(=O)C(=O)c2ccccc21,MTT / absorbance,RAW 264.7,24.62 µM
O=c1[nH]cccc1O,cell count,CEM,>100 µg/mL
CC(=O)c1c(O)c(C)c(O)c(Cc2c(O)c3c(c(C(=O)/C=C/c4ccccc4)c2O)OC(C)(C)C=C3)c1O,ATP / luminescence,PBL,4.244 µM